Target: T1, brain AChE (Gallus gallus, UniProt P36196)
T1 sequence (P36196 20-767): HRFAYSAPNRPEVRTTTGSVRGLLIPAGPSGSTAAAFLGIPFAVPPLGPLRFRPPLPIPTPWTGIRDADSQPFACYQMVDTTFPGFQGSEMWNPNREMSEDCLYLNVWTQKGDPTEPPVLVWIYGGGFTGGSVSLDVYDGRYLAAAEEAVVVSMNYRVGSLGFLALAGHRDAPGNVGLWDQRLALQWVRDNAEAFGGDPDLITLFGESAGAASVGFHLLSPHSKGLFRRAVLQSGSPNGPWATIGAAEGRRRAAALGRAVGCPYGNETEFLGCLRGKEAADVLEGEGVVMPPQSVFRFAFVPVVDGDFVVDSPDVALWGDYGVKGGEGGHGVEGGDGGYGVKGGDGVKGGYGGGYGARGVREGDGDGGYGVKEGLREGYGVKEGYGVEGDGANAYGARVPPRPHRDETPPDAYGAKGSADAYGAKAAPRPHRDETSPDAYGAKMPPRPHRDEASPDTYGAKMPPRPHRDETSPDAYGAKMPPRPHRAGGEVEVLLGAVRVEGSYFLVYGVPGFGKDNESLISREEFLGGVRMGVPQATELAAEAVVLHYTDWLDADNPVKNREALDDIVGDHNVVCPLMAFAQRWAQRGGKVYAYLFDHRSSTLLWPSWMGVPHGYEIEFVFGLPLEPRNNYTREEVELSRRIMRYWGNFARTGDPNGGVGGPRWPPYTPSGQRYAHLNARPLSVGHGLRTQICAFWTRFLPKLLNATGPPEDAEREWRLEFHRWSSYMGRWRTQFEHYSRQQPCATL
Assay: biochemical

## COP(=O)(OC)Oc1ccc([N+](=O)[O-])cc1 [methyl-paraoxon, dimethyl-4-nitrophenyl-phosphate]
  IC50: 25.7 ± 1.76 nM
  Kd: 600 ± 130 nM

— article PMC5031402, “Evaluation of a Brain Acetylcholinesterase Extraction Method and Kinetic Constants after Methyl-Paraoxon Inhibition in Three Brazilian Fish Species” (PLoS ONE, 2016)
